The chains behind the UniProt entries cited, without tags or fusion partners. Residues count along the entry.
UniProt P13612, 34-1032 limits assumed: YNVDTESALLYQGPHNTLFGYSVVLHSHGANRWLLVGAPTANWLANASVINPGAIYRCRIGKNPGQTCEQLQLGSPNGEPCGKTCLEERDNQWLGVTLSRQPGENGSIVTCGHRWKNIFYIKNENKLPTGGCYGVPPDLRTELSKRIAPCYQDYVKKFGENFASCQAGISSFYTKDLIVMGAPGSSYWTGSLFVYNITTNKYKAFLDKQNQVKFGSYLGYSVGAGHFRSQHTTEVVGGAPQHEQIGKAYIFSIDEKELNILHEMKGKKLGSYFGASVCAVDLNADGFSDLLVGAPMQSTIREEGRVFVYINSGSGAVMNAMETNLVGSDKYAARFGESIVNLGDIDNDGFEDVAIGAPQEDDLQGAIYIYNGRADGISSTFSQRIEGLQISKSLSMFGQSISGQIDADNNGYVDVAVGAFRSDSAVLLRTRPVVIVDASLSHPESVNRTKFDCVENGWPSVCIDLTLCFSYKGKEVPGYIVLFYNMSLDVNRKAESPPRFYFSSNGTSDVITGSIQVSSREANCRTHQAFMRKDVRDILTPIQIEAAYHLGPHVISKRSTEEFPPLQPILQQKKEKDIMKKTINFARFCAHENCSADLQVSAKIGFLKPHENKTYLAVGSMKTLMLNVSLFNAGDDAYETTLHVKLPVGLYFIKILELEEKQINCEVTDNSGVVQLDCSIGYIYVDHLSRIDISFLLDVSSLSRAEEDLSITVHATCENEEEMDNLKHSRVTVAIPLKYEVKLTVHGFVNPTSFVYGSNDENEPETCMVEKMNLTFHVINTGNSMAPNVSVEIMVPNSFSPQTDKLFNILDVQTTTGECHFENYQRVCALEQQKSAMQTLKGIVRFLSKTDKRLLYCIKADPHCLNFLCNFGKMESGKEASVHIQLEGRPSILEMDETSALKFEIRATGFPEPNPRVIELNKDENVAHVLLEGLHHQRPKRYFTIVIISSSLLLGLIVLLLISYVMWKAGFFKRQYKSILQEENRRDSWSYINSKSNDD
UniProt P26010, 20-798 limits assumed: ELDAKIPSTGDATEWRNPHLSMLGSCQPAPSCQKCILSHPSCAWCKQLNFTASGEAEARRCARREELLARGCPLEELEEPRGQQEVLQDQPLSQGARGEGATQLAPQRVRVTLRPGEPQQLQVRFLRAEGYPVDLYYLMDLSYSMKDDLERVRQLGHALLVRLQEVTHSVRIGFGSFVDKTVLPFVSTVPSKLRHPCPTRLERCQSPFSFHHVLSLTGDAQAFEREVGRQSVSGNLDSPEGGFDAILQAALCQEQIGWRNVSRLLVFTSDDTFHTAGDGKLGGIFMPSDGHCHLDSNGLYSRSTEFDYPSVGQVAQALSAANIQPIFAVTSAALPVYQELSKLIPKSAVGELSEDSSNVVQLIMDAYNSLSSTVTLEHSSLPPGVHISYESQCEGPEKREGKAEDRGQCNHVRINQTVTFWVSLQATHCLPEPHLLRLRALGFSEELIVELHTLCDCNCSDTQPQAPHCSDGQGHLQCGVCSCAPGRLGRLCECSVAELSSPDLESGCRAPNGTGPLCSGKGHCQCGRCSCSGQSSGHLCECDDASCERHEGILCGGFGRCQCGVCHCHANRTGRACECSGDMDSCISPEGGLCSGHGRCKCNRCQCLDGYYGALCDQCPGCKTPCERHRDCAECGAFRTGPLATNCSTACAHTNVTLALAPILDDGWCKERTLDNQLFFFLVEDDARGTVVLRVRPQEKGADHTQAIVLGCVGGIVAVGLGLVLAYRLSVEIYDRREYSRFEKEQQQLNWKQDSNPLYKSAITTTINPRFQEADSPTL

In this assay the target is binding of HIV associated glycoprotein gp120 and the integrin α4β7 (Homo sapiens (Human), UniProt P13612+P26010). In words: ELISA assay of gp120 binding to integrin α4β7. The note with it: read-out: IC50 a4b7, inhibition of gp120/α4β7 binding, triplicate with two anti-gp120 antibodies. From the text:
A sandwich assay was developed to screen for compounds that inhibit the binding of a4b7 to gp120. Without inhibitors, gp120 and a4b7 bind and this complex can be identified by addition of a mouse anti-gp120 mAb (step 3). This a4b7*gp120anti-gp120 mAb complex is then sequestered on the bottom surface of a 96 welled-plate coated with an anti-mouse secondary mAb (step 4). The complex is then detected by addition of a biotinylated primary mAb against a4b7 (step 5) and detected using an HRP-avidin (step 6). A positive binding event is identified by the presence of HPR activity within each well. The addition of an inhibitor (step 2) blocks the binding between gp120 and a4b7 leading to a lack or reduction of HRP activity as shown in steps 2-5 at the bottom of the figure.
Step 1: Prepare the antigen plate • a. Prepare a PBS stock solution containing 1 μM gp120 and 1 μM α4β7 • b. Add a 200 μL aliquot to each well of the antigen plate.
Step 2: Add the inhibitor. • a. Add 20 μL of a 10× stock of the inhibitor in PBS pH 7.2 containing 1% DMSO • b. Incubate at 4° C. for 6 h with shaking. This delivers the antigen plate.
Step 3: Prepare the binding plate. • a. Aspirate each well of the binding plate • b. Wash three times with 200 μL of wash buffer (PBS pH 7.2, containing 0.05% Tween 20). • c. Add 100 μL of a 0.5 μg/mL stock of the mouse anti-gp120 mAb in PBS pH 7.2 • d. Shake for 1 h at 23° C.
Step 4: Sequester the gp120*α4β7 complex. • a. Aspirate each well of the binding plate. • b. Wash three times with 200 μL of wash buffer. • c. Transfer the contents of the antigen plate to the corresponding wells in the binding plate. • d. Shake for 1 h at 23° C.
Step 5: Develop the binding plate. • a. Aspirate each well of the binding plate. • b. Wash three times with 200 μL of wash buffer. • c. Add 100 μL of a 0.1 μg/mL of the rat anti-α4β7 mAb. • d. Shake for 1 h at 37° C. • e. Aspirate each well of the binding plate. • f. Wash three times with 200 μL of wash buffer. • g. Add 100 μL of 0.2 μg/mL solution of the HRP-conjugated strepavidin • h. Shake for 1 h at 37° C. • i. Aspirate each well of the binding plate. • j. Wash three times with 200 μL of wash buffer. • k. Develop using QuantaBlu fluorogenic peroxidase substrate (ThermoScientific) • l. Evaluate the fluorescence output on a HTS7000 plate reader (Perkin Elmer).
The ELISA assay was applied to screen the compounds in the table, below, to further characterize their activity against the binding of HIV associated glycoprotein gp120 and the integrin α4β7.
The five-step assay developed was applied to screen the compounds in the table below. […] The experiments were run in triplicate using two antibodies against gp120.
In general terms: An ELISA detects its analyte on a solid surface through an enzyme-linked reagent.
For `Cc1ccc(CNC(=O)c2ccccc2NC(=O)CN2CCc3ccccc3C2)cc1`, the IC50 was determined as 1.64 nM. The result for `CC(NC(=O)c1ccccc1NC(=O)CN1CCN(Cc2ccccn2)CC1)c1ccccc1` (stereo not shown) reads 4.67 nM; that for `CCOC(=O)N1CCN(CC(=O)Nc2ccccc2C(=O)NCc2ccccc2)CC1`, 2.64 nM. With `CC(C)C(=O)Nc1cccc(C(=O)Nc2ccccc2C(=O)NCc2ccccc2)c1` the figure was 0.98 nM.

The values above are taken from US9610264B2, “Compounds for the treatment and prevention of retroviral infections” (KFLP Biotech, LLC, priority 2012, dated 2017).
